Measured values from several laboratories, pooled; numbers as filed in NIAID ChemDB.

All rows: tests in culture; species: Mycobacterium avium complex

Rows are shuffled and stem from different studies.

smiles	strain or isolate	measure	result
NCCC(O)C(N)CC(=O)NC1CNC(=O)C(C2CCN=C(N)N2)NC(=O)/C(=C/NC(N)=O)NC(=O)C(CO)NC(=O)C(CO)NC1=O	TMC 1411	MIC	1.56 µg/mL
Fc1cccc(Cl)c1CSc1nc2ccccc2[nH]1	MY330/88	MIC	62 µM
NC[C@H]1O[C@H](O[C@H]2[C@H](O)[C@@H](O[C@H]3O[C@H](CO)[C@@H](O)[C@H](N)[C@H]3O)[C@H](N)C[C@@H]2N)[C@H](O)[C@@H](O)[C@@H]1O	32 isolates	MIC	5 µg/mL
CN[C@@H]1[C@H](O[C@H]2[C@H](O[C@H]3[C@H](O)[C@@H](O)[C@H](N=C(N)N)[C@@H](O)[C@@H]3N=C(N)N)O[C@@H](C)[C@]2(O)C=O)O[C@@H](CO)[C@H](O)[C@H]1O	Isolate C-20	MIC	>400 µg/mL
NC[C@@H]1O[C@H](O[C@H]2[C@@H](O)[C@H](O[C@@H]3[C@@H](O)[C@H](N)C[C@H](N)[C@H]3O[C@H]3O[C@H](CO)[C@@H](O)[C@H](O)[C@H]3N)O[C@@H]2CO)[C@H](N)[C@@H](O)[C@@H]1O	Isolate 122	MIC	25 µg/mL
NCC[C@H](O)C(=O)N[C@@H]1C[C@H](N)[C@@H](O[C@H]2O[C@H](CN)[C@@H](O)[C@H](O)[C@H]2O)[C@H](O)[C@H]1O[C@H]1O[C@H](CO)[C@@H](O)[C@H](N)[C@H]1O	1257/HIV-	MIC	4 µg/mL
CC(C)N=c1cc2n(-c3ccc(Cl)cc3)c3ccccc3nc-2cc1Nc1ccc(Cl)cc1	32 isolates	MIC50	1 µg/mL
CC[C@@H](CO)NCCN[C@@H](CC)CO	9141	MBC	60 µg/mL
CCCCOP(=O)(OCCCC)OCCCC	32 isolates	MIC90	>128 µg/mL
Clc1cccc(CSc2nc3ccccc3[nH]2)c1	MY330/88	MIC	>62 µM
NC[C@H]1O[C@H](O[C@H]2[C@H](O)[C@@H](O[C@H]3O[C@H](CO)[C@@H](O)[C@H](N)[C@H]3O)[C@H](N)C[C@@H]2N)[C@H](N)[C@@H](O)[C@@H]1O	TMC 1411	MIC	0.1 µg/mL
CC(C)Sc1nc2ccccc2[nH]1	MY330/88	MIC	500 µM
Nc1ncnc2c1ccn2[C@@H]1O[C@H](CO)[C@@H](O)[C@H]1O	32 isolates	MIC	16 µg/mL
Clc1ccc(CSc2nc3ccccc3[nH]2)cc1	MY330/88	MIC	>32 µM
NC(=O)c1ncn([C@@H]2O[C@H](CO)[C@@H](O)[C@H]2O)n1	32 isolates	MIC90	>128 µg/mL
NCCC(O)C(N)CC(=O)NC1CNC(=O)C(C2CCN=C(N)N2)NC(=O)/C(=C/NC(N)=O)NC(=O)C(CO)NC(=O)C(CO)NC1=O	13008 (serotype 20)	MIC	3.2 µg/mL
CO[C@H]1/C=C/O[C@@]2(C)Oc3c(C)c(O)c4c(=O)c(c5oc6cc(N7CCN(CC(C)C)CC7)cc(=O)c6nc5c4c3=C2O)NC(=O)/C(C)=C\C=C\[C@H](C)[C@H](O)[C@@H](C)[C@@H](O)[C@@H](C)[C@H](OC(C)=O)[C@@H]1C	20 strains	MIC90	0.39 µg/mL
NNC(=O)c1ccncc1	13034 (serotype 18)	MIC	0.8 µg/mL
CN[C@@H]1[C@@H](O)[C@@H](O[C@@H]2[C@@H](O)[C@H](O[C@H]3O[C@H](CN)CC[C@H]3N)[C@@H](N)C[C@H]2N)OC[C@]1(C)O	TMC 1469	MIC	1.56 µg/mL
NC[C@@H]1O[C@H](O[C@H]2[C@@H](O)[C@H](O[C@@H]3[C@@H](O)[C@H](N)C[C@H](N)[C@H]3O[C@H]3O[C@H](CO)[C@@H](O)[C@H](O)[C@H]3N)O[C@@H]2CO)[C@H](N)[C@@H](O)[C@@H]1O	32 isolates	MIC90	16 µg/mL
S=c1[nH]c2ccccc2[nH]1	MY330/88	MIC	1000 µM
NC[C@H]1O[C@H](O[C@H]2[C@H](O)[C@@H](O[C@H]3O[C@H](CO)[C@@H](O)[C@H](N)[C@H]3O)[C@H](N)C[C@@H]2N)[C@H](O)[C@@H](O)[C@@H]1O	N-981 (HIV+)	MIC	8 µg/mL
COC(=O)[C@H]1[C@H]2C[C@@H]3c4[nH]c5cc(OC)ccc5c4CCN3C[C@H]2C[C@@H](OC(=O)c2cc(OC)c(OC)c(OC)c2)[C@@H]1OC	32 isolates	MIC90	>128 µg/mL
O=[N+]([O-])c1cccc(CSc2nc3ccccc3[nH]2)c1	MY330/88	MIC	>16 µM
NC[C@H]1O[C@H](O[C@H]2[C@H](O)[C@@H](O[C@H]3O[C@H](CO)[C@@H](O)[C@H](N)[C@H]3O)[C@H](N)C[C@@H]2N)[C@H](O)[C@@H](O)[C@@H]1O	Isolate 53	MIC	6.25 µg/mL
NCC[C@H](O)C(=O)N[C@@H]1C[C@H](N)[C@@H](O[C@H]2O[C@H](CN)[C@@H](O)[C@H](O)[C@H]2O)[C@H](O)[C@H]1O[C@H]1O[C@H](CO)[C@@H](O)[C@H](N)[C@H]1O	32 isolates	MIC	12 µg/mL
CC1COc2c(N3CCN(C)CC3)c(F)cc3c(=O)c(C(=O)O)cn1c23	804/HIV+	MIC	16 µg/mL
C[C@@H]1CN(c2c(F)c(N)c3c(=O)c(C(=O)O)cn(C4CC4)c3c2F)C[C@H](C)N1	20 strains	MIC90	6.25 µg/mL

Again, the opening 4 rows:

{"smiles": "NCCC(O)C(N)CC(=O)NC1CNC(=O)C(C2CCN=C(N)N2)NC(=O)/C(=C/NC(N)=O)NC(=O)C(CO)NC(=O)C(CO)NC1=O", "strain or isolate": "TMC 1411", "measure": "MIC", "result": "1.56 µg/mL"}
{"smiles": "Fc1cccc(Cl)c1CSc1nc2ccccc2[nH]1", "strain or isolate": "MY330/88", "measure": "MIC", "result": "62 µM"}
{"smiles": "NC[C@H]1O[C@H](O[C@H]2[C@H](O)[C@@H](O[C@H]3O[C@H](CO)[C@@H](O)[C@H](N)[C@H]3O)[C@H](N)C[C@@H]2N)[C@H](O)[C@@H](O)[C@@H]1O", "strain or isolate": "32 isolates", "measure": "MIC", "result": "5 µg/mL"}
{"smiles": "CN[C@@H]1[C@H](O[C@H]2[C@H](O[C@H]3[C@H](O)[C@@H](O)[C@H](N=C(N)N)[C@@H](O)[C@@H]3N=C(N)N)O[C@@H](C)[C@]2(O)C=O)O[C@@H](CO)[C@H](O)[C@H]1O", "strain or isolate": "Isolate C-20", "measure": "MIC", "result": ">400 µg/mL"}

MIC50, MIC90 and the like: level of inhibition, or share of isolates inhibited.